{"source": "patent US9480729B2", "about": "“Enzymes for inhibiting growth of biofilms and degrading same” (C5-6 Technologies, Inc., priority 2012, dated 2016)", "molecules": {"B1": {"name": "P130: Clostridium thermocellum ManA enzyme (gene Cthe_0032) represented by SEQ ID NO:3; beta-mannanase (protein, listed as Clostridium thermocellum)", "chain": "AYSLPVDVEAEDCTLGNGAVVTTNVYGTQYPGYSGDGFVWVANSGTITLEVTIPENGMYELSTRCWMYLGKEDETRMQVISINGKSHSNYFIPNKGQWIDYSFGFFYLEAGKATIEIGSSGSWGFILYDKIYFDHADMPDHIIDPTPCDPNATPETRALMKYLTSVYGKYVISGQQEIYGNGNDGNYELEFDYIYEKTGKYPAIRGFDFMNYNPLYGWEDGTTARIIDWVKNRGGIATACWHINIPRDFASYKLGEPVDWTNCTYKPTSSFNTANCLDETTKEHAYLMMAIEDLAEQLLILQEQNIPILFRPFHEAEGYNNTDGSGAWFWWGSAGAEVYKELWKLLYKTLTEKYGIHNLIWEVNLYTYANSYEWYPGDEYVDIIGYDKYEGSPNTWGTSAASSLFLTLVNYTNDTKMVALTENDVIPDIQNIVNEEAWWLYFCPWYGDFLMSPRYNDPVLLNTIYNSEYVITLDELPENLYEYDGEIPDINYGDLNNDGNINSTDYMILKKYILKVLERMNVPEKAADLNGDGSINSTDLTILKRFIMKAITKFPVTQK"}, "B2": {"name": "P042: Clostridium thermocellum CelO enzyme (gene Cthe_2147) represented by SEQ ID NO:6; cellulase (protein, listed as Clostridium thermocellum)", "chain": "DDTSEEPALEGLSIHYMDGTLDVKYQSMRPYIIIHNNSGMDVDMADLRVRYYYEKEGVTEEVLTCFYTAIGADKIFAEFHPELGYAEIGFTSDAGIIKSGGNSGQLQLVLKKISNGYYDQSNDYSYDPSYTDYAEYDKITLYYKGKLVWGKEGPPPPPEPTPPPNNDDWLHVEGNLIKDAQGNTVYLTGINWFGFETDGANGFYGLNKCNLEDSLDLMAKLGFNILRIPISAEIILQWKNGERVETSFVNTYENPRLDGLSSLEILDYTINHMKKNGMKAMLDMHSSTKDSYQENLWYNKDITMEEFIEAWKWIVERYKDDDTVIAVDLKNEPHGKYSGPNIAKWDDSDDPNNWKRAAEIIAEEILAINPNLLIVVEGVEAYPMEGYDYTNCGEFTTYCNWWGGNLRGVADHPVVISAPDKLVYSVHDYGPDIYMQPWFKKDFDINTLYEECWYPNWYYIVEQNIAPMLIGEWGGKLINENNRKWLECLATFISEKKLHHTFWAFNPNSADTGGLMLEDWKTVDEEKYAIIEPTLWKKGLDHVIPLGGITEDTFKYGDVNGDFAVNSNDLTLIKRYVLKNIDEFPSSHGLKAADVDGDEKITSSDAALVKRYVLRAITSFPVEENQNE"}, "B3": {"name": "P045: Clostridium thermocellum CelK enzyme (gene Cthe_0412) represented by SEQ ID NO:9; cellulase (protein, listed as Clostridium thermocellum)", "chain": "LEDKSPKLPDYKNDLLYERTFDEGLCFPWHTCEDSGGKCDFAVVDVPGEPGNKAFRLTVIDKGQNKWSVQMRHRGITLEQGHTYTVRFTIWSDKSCRVYAKIGQMGEPYTEYWNNNWNPFNLTPGQKLTVEQNFTMNYPTDDTCEFTFHLGGELAAGTPYYVYLDDVSLYDPRFVKPVEYVLPQPDVRVNQVGYLPFAKKYATVVSSSTSPLKWQLLNSANQVVLEGNTIPKGLDKDSQDYVHWIDFSNFKTEGKGYYFKLPTVNSDTNYSHPFDISADIYSKMKFDALAFFYHKRSGIPIEMPYAGGEQWTRPAGHIGVAPNKGDTNVPTWPQDDEYAGRPQKYYTKDVTGGWYDAGDHGKYVVNGGIAVWTLMNMYERAKIRGIANQGAYKDGGMNIPERNNGYPDILDEARWEIEFFKKMQVTEKEDPSIAGMVHHKIHDFRWTALGMLPHEDPQPRYLRPVSTAATLNFAATLAQSARLWKDYDPTFAADCLEKAEIAWQAALKHPDIYAEYTPGSGGPGGGPYNDDYVGDEFYWAACELYVTTGKDEYKNYLMNSPHYLEMPAKMGENGGANGEDNGLWGCFTWGTTQGLGTITLALVENGLPSADIQKARNNIAKAADKWLENIEEQGYRLPIKQAEDERGGYPWGSNSFILNQMIVMGYAYDFTGNSKYLDGMQDGMSYLLGRNGLDQSYVTGYGERPLQNPHDRFWTPQTSKKFPAPPPGIIAGGPNSRFEDPTITAAVKKDTPPQKCYIDHTDSWSTNEITINWNAPFAWVTAYLDEIDLITPPGGVDPEEPEVIYGDCNGDGKVNSTDAVALKRYILRSGISINTDNADVNADGRVNSTDLAILKRYILKEIDVLPHK"}, "B4": {"name": "Aaci: Alicyclobacillus acidocaldarius alpha-amylase represented by SEQ ID NO:24 (protein, listed as Alicyclobacillus acidocaldarius)", "chain": "FENTRSVGTERVLAATAADSTNASPPTGASAGGGTAGETYSNAVQIVSGNGFRAGNGATVVLAVNGLNLNPSSFKVVVSNSLNGVIDVTSDSVLTGPNSIALHLPAGDDGLGAGTYTVTVESGGDSVSTPSGQGLQVMPYTTADTIQWDGIYTSDGAMYVSDPNPSPGQEVTISLRAYSGNLTKVILNCWDTAQNKGFQVEMSPGRTFGPYQLWSATIPASNGGTIYYRFDIYDGTSFACLSGDGLHTSDDINNNFPLPVGTVTLSTLQANPGDTVTVSDPVGDFAGSQDQPNHTVIRFVNSSGETAATVNGTNASWNSVQFTVPQSLPNGLYRVEIDTVAKDADGVVNVELDRSAELIVGPLPAWMQAYAHDSFQAFYRSPFGAVSTGTPITLRLRAPLSVKSATLRLWGAADQSGEIDLPMQKLQMSGDELAQQTGVQDINDYTWWTVTIPAADVTTPGTMWYQFVTETDTGQVVYYDDNGAQLEGPGQVGLSSDGPSYQISVYERGFQTPDWLKHAVIYEIMPDRFYNGNIATEENPNTQKGIYVGADGTESLGPIQFHENWDSPPYDPNIPPLSDPKIASLRGNGQWNIDFFGGDLQGIEDKLDYLKSLGVNTLYLMPVFEAESNHKYDTADYFKIDPGFGTQQDWLNLVQAAHAKGFHIILDGVFEDTGSDSVYFNKFGNFHSNGAWQAYLKNQPSLSPYYSWYVWTGNTSNPYDSWFQIDTLPLTDTSNPAYQRFVYGSDNSVARVWIREGADGWRLDSADNGNFNTAWWGGFRQAVKSIDPNAAIIGEIWDNATNDNGTDWLTGSTFDSVMNYQFRNAVIDFFRGTYNDGNVQHHAVDAAGFNQELMRLYSEYPLQSFYSMMNLVDSQDTMRILTILENAPQPGDLSALQQDEYRPSPAAEQLGIERLKLVSDFQFSFPGDPTIFYGDEAGLTGYSDPLNRRTYPWDNQNLDLLNHYRKLGAIRNANPVLQTGDFTPLYAQGMVYAFARTIRNGRDVFGVPAEDATAIVAINNQNQAITVTIPTDGTVADGSTMLDELNNQWYKVQNGGITLTLQSYQGAILVTPSDAPMAYLQEEDSQNEIAWTPVQGAIGYRVWRQNPNGQWVPFGPVLPATDLSVTVERDAYAQTFAVQALFSASDHAQSPVSAPKTVSLPVDVPAVRLSQPIVSGRVVGDRAMVSITPVSGATQYVIYQRQGDGSYAPVATVSTSGDSAAIGEVPAQGPANSPHATIRVTVPVPAGFSSVTYRVAAQNEDGQAVTNPLTLSLSKK"}, "B5": {"name": "Dtur: Dictyoglomus turgidum AmyA enzyme (gene Dtur_0675) represented by SEQ ID NO:15 (protein, listed as Dictyoglomus turgidum)", "chain": "DIPLNIYDPKVQKVERPLYLAIIWHNHQPLYYDPDQNINILPWVRMHAIKDYYDMAYILKNYPQIKANFNMVPSLLYQLELYTKKGIKDKYLILTEKPADQLTIEDKEFILRRFFDVNWDRIIKKFPRYWELLNKRGQSVDDVVIAKAIQKFTTQDFRDLQVWFNLAWFDPDFQKYDKDLSRLIEKGKNFTEEDKKVVINKQYEIMSKIIPLYAELQKTKQIEVTTTPFFHPIMPLLVDIKSAKIAVQDIALPNATINYSDDTSAQLSMAVNYYKKFFKDTPKGLWPSEGSVSQDIIPIVGNSGFLWMASDEDVLSKSLNTPILRDSRGNVTNPDVLYQPYIVEEQGKKVYVVFRDKNLSDKIGFVYSGMKGENAAKDFVNRLENIYERVKDDKKSYLVTVILDGENCWEYYENDGKEFLNTLYKLLTDSPYIETVRLTDYLNKFPPTKKIERLHSGSWIDGTFLTWVGEQEENKAWEILDKARTELIYETVKQKKTISPVLNPDLLRNNIEKAWFELYAAEGSDWFWWYGDDQDSTNDLAFDELFRKHLINVYKLIGKEVPQELFLPIVKIGEEKPVQSLQAKFTPKIDGLINPEDEWKNAAIYLAKKGTGLSTKPSDFIEKVYLGLDNDNVYFLIESKTNLKDYLGKPYFLAVYFSNPNQKEYNLYPRKGSQTLGYGIAYELLIDFSKISSLGEVDAILNQATGNNSWRQQSTLKAGVSEKYIEVGVPFKEIKVQGREQIAMNVIFGKEEPIDVVPYYVPIYLTVPEKKLEITYFSIDDPTGDDYGWGKVVYPTAPVFKPGVFDIIHVEMGKSKDDIVFKIKIRGDLENPWGSPTGVSVQTIDIYINDGKESTYYYQALPGRQANIPEGWNKAIWAEGWIQELIIPTLDEKGKVQLKEIKGVVQLSTDPTERTIIISVPEKYLGPVTPDWKILVILCGQEGYPRPGSWRVREVEEEAKQWRFGGGDDFYGDPNIIDMIVPPGMKQEDILSKWVSSEDEEENVYVELPLIPLRVLMSQ"}, "B6": {"name": "Bst: Bacillus stearothermophilus AmyS enzyme (UniProt P06279) represented by SEQ ID NO:18 (protein, listed as Bacillus stearothermophilus)", "chain": "AAPFNGTMMQYFEWYLPDDGTLWTKVANEANNLSSLGITALWLPPAYKGTSRSDVGYGVYDLYDLGEFNQKGAVRTKYGTKAQYLQAIQAAHAAGMQVYADVVFDHKGGADGTEWVDAVEVNPSDRNQEISGTYQIQAWTKFDFPGRGNTYSSFKWRWYHFDGVDWDESRKLSRIYKFRGIGKAWDWEVDTENGNYDYLMYADLDMDHPEVVTELKSWGKWYVNTTNIDGFRLDAVKHIKFSFFPDWLSDVRSQTGKPLFTVGEYWSYDINKLHNYIMKTNGTMSLFDAPLHNKFYTASKSGGTFDMRTLMTNTLMKDQPTLAVTFVDNHDTEPGQALQSWVDPWFKPLAYAFILTRQEGYPCVFYGDYYGIPQYNIPSLKSKIDPLLIARRDYAYGTQHDYLDHSDIIGWTREGVTEKPGSGLAALITDGPGGSKWMYVGKQHAGKVFYDLTGNRSDTVTINSDGWGEFKVNGGSVSVWVPRKTTVSTIAWSITTRPWTDEFVRWTEPRLVAWP"}}, "data": [{"test_system": "Pseudomonas aeruginosa biofilm", "assay": "Sugar release / solubilization of dehydrated P. aeruginosa biofilm by carbohydrate-active enzymes", "details": "carbohydrate released by sonication set at 100%; enzyme blank used", "values": [{"molecule": "B1", "percentage of biofilm carbohydrate solubilized": "approximately 20%"}, {"molecule": "B2", "percentage of biofilm carbohydrate solubilized": "approximately 50%"}, {"molecule": "B3", "percentage of biofilm carbohydrate solubilized": "approximately 50%"}]}, {"test_system": "Pseudomonas aeruginosa biofilm", "assay": "Sugar release / solubilization of dehydrated P. aeruginosa biofilm by carbohydrate-active enzymes", "details": "individual enzymes, dehydrated biofilm in PBS, 37° C., 19 hr / overnight", "values": [{"molecule": "B1", "digestion (solubilization, hydrolysis) of the Pseudomonas aeruginosa biofilm, sugar release": "significantly greater digestion of the biofilm than the other fifteen enzymes"}, {"molecule": "B2", "digestion (solubilization, hydrolysis) of the Pseudomonas aeruginosa biofilm, sugar release": "significantly greater digestion of the biofilm than the other fifteen enzymes"}, {"molecule": "B3", "digestion (solubilization, hydrolysis) of the Pseudomonas aeruginosa biofilm, sugar release": "significantly greater digestion of the biofilm than the other fifteen enzymes"}]}, {"test_system": "P. aeruginosa PA14", "assay": "Biofilm inhibition assay on abiotic plastic surface (crystal violet, 550 nm)", "details": "enzyme ~0.02 mg/ml, added at start, 6-8 hrs, compared to PBS buffer control", "values": [{"molecule": "B1", "inhibition of biofilm formation": "effectively inhibited"}, {"molecule": "B2", "inhibition of biofilm formation": "effectively inhibited"}, {"molecule": "B3", "inhibition of biofilm formation": "effectively inhibited"}, {"molecule": "B4", "inhibition of biofilm formation": "effective in inhibiting the formation of biofilm"}, {"molecule": "B5", "inhibition of biofilm formation": "effective in inhibiting the formation of biofilm"}, {"molecule": "B6", "inhibition of biofilm formation": "effective in inhibiting the formation of biofilm"}]}]}
